Results of unrelated studies side by side (data: NIAID ChemDB).

Shared fields: growth or infection tests; organism: Influenza A virus; read-out: EC50

Lines come from different laboratories, so protocols vary. ECn: concentration that inhibits the pathogen or its effect by n%. An empty or dashed field is not shown. Two numbers with a dash give a range or band.

SMILES | strain | cells | read by | result
Nc1[nH]n2c(=O)cc(CN3CC[N+]4(CC3)CC[N+]3(CCN(Cc5cc(=O)n6[nH]c(N)c([N+](=O)[O-])c6n5)CC3)CC4)nc2c1[N+](=O)[O-] | - | MDCK | cytopathic effect | >70 µg/mL
CC(=O)N[C@H]1[C@H]([C@H](O)[C@H](O)CO)OC(C(=O)O)=C[C@@H]1N=C(N)N | A/Stockholm/24/90 | MDCK | plaque count | 16 µM
O=C(CCCc1ccccc1)N1CC[N+]2(CC1)CC[N+]1(CCN(C(=O)CCCc3ccccc3)CC1)CC2 | - | MDCK | cytopathic effect | >70 µg/mL
NC12CC3CC(CC(C3)C1)C2 | Influenza A/Sydney/05/97 (H3N2) | MDCK | neutral red / visual reading | 0.45 µM
C[C@@H]1CCC[C@@H]2C[C@@H](NC(=O)c3cc(Br)ccc3O)CCN21 | H1N1 A/WSN/33 | MDBK | plaque count | 0.8 µg/mL
NC(=O)c1ncn([C@@H]2O[C@H](CO)[C@@H](O)[C@H]2O)c1O | A/Ishikawa | MDCK | plaque count | 11.3 µg/mL
COc1ccc([C@@H]2CC(=O)c3c(O)cc(O[C@@H]4O[C@H](CO[C@@H]5O[C@@H](C)[C@H](O)[C@@H](O)[C@H]5O)[C@@H](O)[C@H](O)[C@H]4O[C@@H]4O[C@@H](C)[C@H](O)[C@@H](O)[C@H]4O)cc3O2)cc1 | H1N1 A/Taiwan/1/86 | - | ELISA | 918 µg/mL
NC12CC3CC(CC(C3)C1)C2 | H1N1 Yamagata/120/86 | MDCK | plaque count | 1.6 µg/mL
C[C@@H]1CCC[C@@H]2C[C@@H](NC(=O)c3cc4ccccc4cc3O)CCN21 | H1N1 A/WSN/33 | MDBK | plaque count | >20 µg/mL
O=[N+]([O-])c1c(Cl)ncnc1NN1CC[N+]2(CC1)CC[N+]1(CCN(Nc3ncnc(Cl)c3[N+](=O)[O-])CC1)CC2 | - | MDCK | cytopathic effect | >70 µg/mL
N=C(N)c1ncn([C@@H]2O[C@H](CO)[C@@H](O)[C@H]2O)n1 | Influenza A/Victoria/3/75 (H3N2) | MDCK | neutral red | 11 µg/mL
C[C@@H]1CCC[C@@H]2C[C@@H](NC(=O)c3cc(Cl)c(N=[N+]=[N-])cc3O)CCN21 | H1N1 A/WSN/33 | MDBK | plaque count | >20 µg/mL
NC12CC3CC(CC(C3)C1)C2 | H1N1 A/PR/8/34 | MDCK cells | cytopathic effect | 134.5 µM
COc1ccc(O)c(C(=O)N[C@H]2CCN3[C@H](CCC[C@H]3C)C2)c1 | H1N1 A/WSN/33 | MDBK | plaque count | 0.6 µg/mL
Nc1nc(N2CC[N+]3(CC2)CC[N+]2(CCN(c4nc(N)[nH]c(=O)c4[N+](=O)[O-])CC2)CC3)c([N+](=O)[O-])c(=O)[nH]1 | - | MDCK | cytopathic effect | >70 µg/mL
C=C1[C@H](CO)[C@@H](O)C[C@@H]1n1cnc2c(=O)[nH]c(N)nc21 | H1N1 A/WSN/33 (H1N1) | MDBK | - | >80 µM
CC1(C)C[C@H](O)C[C@](C)(CNC(=O)c2cc(Cl)ccc2O)C1 | H-1 | - | plaque count | 0.03 µg/mL
CCC(=O)N[C@@H]([C@@H]1OC(C(=O)O)=C[C@H](N=C(N)N)[C@H]1NC(C)=O)[C@H](O)CO | A/Yamagata/32/89 | - | plaque count | 0.1 µg/mL
Cc1cccc(C(=O)N[C@H]2CCN3[C@H](CCC[C@H]3C)C2)c1O | H1N1 A/WSN/33 | MDBK | plaque count | 8 µg/mL
CC(=O)N[C@H]1[C@H]([C@H](O)[C@H](O)CO)OC(C(=O)O)=C[C@@H]1N | H1N1 A/FM/1/47 | MDCK | plaque count | 2.4 µM
Cc1ccccc1NC(=O)CSc1sc(N)nc1-c1ccc(Br)cc1Br | H3N2 A/HK/7/87 | MDCK cells | cytopathic effect | >195 µM
CCCCCCCCCCCCCCCC(=O)N[C@@H]([C@@H]1OC(C(=O)O)=C[C@H](N=C(N)N)[C@H]1NC(C)=O)[C@H](O)CO | A/Yamagata/32/89 | - | plaque count | 0.4 µg/mL
N#Cc1ccc(N2CC[N+]3(CC2)CC[N+]2(CCN(c4ccc(C#N)cc4[N+](=O)[O-])CC2)CC3)c([N+](=O)[O-])c1 | - | MDCK | cytopathic effect | >70 µg/mL
COc1ccc(/C=C2\N=C(CC(C)C)C(=O)N(O)C2=O)cc1 | - | - | - | >10 µM
O=C(CCCl)NN1CC[N+]2(CC1)CC[N+]1(CCN(NC(=O)CCCl)CC1)CC2 | - | MDCK | cytopathic effect | >70 µg/mL
NC(=O)c1ncn([C@@H]2O[C@H](CO)[C@@H](O)[C@H]2O)n1 | B/Victoria/102/85 | MDCK | plaque count | 10 µM
C[C@@H]1CCC[C@@H]2C[C@@H](NC(=O)c3cc(C(C)(C)C)ccc3O)CCN21 | H1N1 A/WSN/33 | MDBK | plaque count | >20 µg/mL
C#Cc1c(C(N)=O)ncn1[C@@H]1O[C@H](CO)[C@@H](O)[C@H]1O | A/Bangkok/10/83 (H1N1) | MDCK | plaque count | 0.4 µg/mL
NC12CC3CC(CC(C3)C1)C2 | B/Victoria/102/85 | MDCK | plaque count | >30 µM
Cc1nc(N2CCC[N+]3(CC2)CC[N+]2(CCCN(c4nc(C)nc5c4no[n+]5[O-])CC2)CC3)c2c(no[n+]2[O-])n1 | - | MDCK | cytopathic effect | >70 µg/mL
C[C@@H]1CCC[C@@H]2C[C@@H](NC(=O)c3cc(Cl)c(N)cc3O)CCN21 | H1N1 A/WSN/33 | MDBK | plaque count | 1–3 µg/mL

The first 3 rows once more:

SMILES	strain	cells	read by	result
Nc1[nH]n2c(=O)cc(CN3CC[N+]4(CC3)CC[N+]3(CCN(Cc5cc(=O)n6[nH]c(N)c([N+](=O)[O-])c6n5)CC3)CC4)nc2c1[N+](=O)[O-]	-	MDCK	cytopathic effect	>70 µg/mL
CC(=O)N[C@H]1[C@H]([C@H](O)[C@H](O)CO)OC(C(=O)O)=C[C@@H]1N=C(N)N	A/Stockholm/24/90	MDCK	plaque count	16 µM
O=C(CCCc1ccccc1)N1CC[N+]2(CC1)CC[N+]1(CCN(C(=O)CCCc3ccccc3)CC1)CC2	-	MDCK	cytopathic effect	>70 µg/mL